tested on: M1 activated macrophages (AMOs) from Raw 254.7 murine macrophages; test: In vitro cytotoxicity study; assay type: cell-based; conditions: TI = EC50/MIC B. cereus
Excerpt: A potential antimicrobial candidate must selectively kill pathogen cells without harming the host mammalian cells. To test the ability of SLs to effectively discriminate between bacteria and mammalian cells, a cytotoxicity assay was previously reported by our team. […] The therapeutic index (TI) is a parameter commonly used to determine potential drug selectivity. […] Generally, membrane-active agents are not considered for systemic administration directly, because of relatively low selectivity. Thus, designing suitable formulations and selecting suitable dose ranges are important in drug development.

`CCCCOC(=O)CCCCCCC/C=C\CCCCCCC(C)OC1OC(CO)C(O)C(O)C1OC1OC(CO)C(O)C(O)C1O` (stereo not drawn) [SL-butyl ester] was tested, and the “TI relative to that of lactonic SL” value was 16 ×.

same assay, conditions: TI = EC50 macrophage/MIC B. cereus; EC50 = concentration causing 50% killing of macrophage after 16 h

In order of rising “Therapeutic index (TI)” value:
1. CC(=O)OCC1OC2OC(C)CCCCCC/C=C\CCCCCCCC(=O)OC3C(COC(C)=O)OC(OC2C(O)C1O)C(O)C3O (stereo not drawn) [Lactonic SL, reference compound]  2
2. CCOC(=O)CCCCCCC/C=C\CCCCCCC(C)OC1OC(CO)C(O)C(O)C1OC1OC(CO)C(O)C(O)C1O (stereo not drawn) [SL-ethyl ester]  6
3. CCCOC(=O)CCCCCCC/C=C\CCCCCCC(C)OC1OC(CO)C(O)C(O)C1OC1OC(CO)C(O)C(O)C1O (stereo not drawn) [SL-propyl ester]  16
4. CCCCCOC(=O)CCCCCCC/C=C\CCCCCCC(C)OC1OC(CO)C(O)C(O)C1OC1OC(CO)C(O)C(O)C1O (stereo not drawn) [SL-pentyl ester]  17
5. CCCCOC(=O)CCCCCCC/C=C\CCCCCCC(C)OC1OC(CO)C(O)C(O)C1OC1OC(CO)C(O)C(O)C1O (stereo not drawn) [SL-butyl ester]  33

Reference: paper PMC8158775, “Structure–Activity Relationship Assessment of Sophorolipid Ester Derivatives against Model Bacteria Strains” (Molecules, 2021)
